Reference: PMC9127493 (Signal Transduction and Targeted Therapy, 2022)

System: SARS-CoV-2 wild-type isolate XM088T
Assay: Antiviral efficacy assay, qRT-PCR of virus released in supernatants
Assay type: cell-based

Cc1ccc(NC(=O)c2cccc(C(F)(F)F)c2)cc1Nc1nc(-c2ccncc2)c2[nH]ccc2n1 [cmpd 24]
selectivity index (SI, CC50/EC50): 4.21
